Measured data: PubChem BioAssay AID1224833 (University of Georgia, 2016)
This is an unselected part of about 12,000 reagents tested. About 5,600 of them (46%) count as active. 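Active calls cover z-scores past 1 in both directions, so they include lowered as well as raised rotavirus replication.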 A number with no mark means an inactive call.

- Aim: 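Host factors restraining rotavirus as candidate antiviral genes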 (primary screen)
- System: monkey MA104 kidney cells
- Reagents: siRNA pool against human genes, 50 nM
- Timing: 48 h knock-down before infection; read 24 h after infection
- Conditions: infection with rotavirus strain RV3 two days after transfection; infectious dose for this stage not given
- Measurement: 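z-score of rotavirus antigen signal per well, from a fluorescent immunoassay, relative to non-targeting control wells on the same plate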
- Scale: z-score vs non-targeting control: higher = more rotavirus replication than with non-targeting control
- Call rule: In these data the active calls have z-score vs non-targeting control at about -1 or lower, or at about 1 or higher
- Meaning of the calls: active = z-score beyond 1 either way; inactive = z-score within 1 of zero

For BBOF1 (basal body orientation factor 1) the deposit lists z-score vs non-targeting control -1.02 (active). After knock-down of SPNS2 (SPNS lysolipid transporter 2, sphingosine-1-phosphate) the results were z-score vs non-targeting control -0.993. CDCA7L (cell division cycle associated 7 like) showed z-score vs non-targeting control 0.805. MT1A (metallothionein 1A) showed z-score vs non-targeting control -0.334. For IGSF21 (immunoglobin superfamily member 21), the values are z-score vs non-targeting control -1.63 (active). SLC35G5 showed z-score vs non-targeting control -0.194.

With knock-down of VASH1 (vasohibin 1), the screen gave z-score vs non-targeting control -1.45 (active). Against MRPS25 (mitochondrial ribosomal protein S25), the entry reads z-score vs non-targeting control -0.808. OR5C1 (olfactory receptor family 5 subfamily C member 1) showed z-score vs non-targeting control 0.428. Silencing of GSE1 (Gse1 coiled-coil protein) resulted in: z-score vs non-targeting control -1.77 (active). After knock-down of IL17C (interleukin 17C), the record shows z-score vs non-targeting control -0.857. For OR4S1 (olfactory receptor family 4 subfamily S member 1), the entry reads z-score vs non-targeting control 0.01.

Depletion of SCOC (short coiled-coil protein) resulted in: z-score vs non-targeting control -0.0722. CXCL16 (C-X-C motif chemokine ligand 16) scored z-score vs non-targeting control 0.628. Against AP3D1 (adaptor related protein complex 3 subunit delta 1), the entry reads z-score vs non-targeting control -1.11 (active). LRRC2 (leucine rich repeat containing 2) scored z-score vs non-targeting control -1.27 (active). After knock-down of NGF (nerve growth factor), the record shows z-score vs non-targeting control -2.13 (active). SESN3 (sestrin 3) scored z-score vs non-targeting control -2.09 (active).

Depletion of INTS7 (integrator complex subunit 7) resulted in: z-score vs non-targeting control -0.46. Against OSBP2 (oxysterol binding protein 2) the deposit lists z-score vs non-targeting control -0.834. Against NUFIP2 (nuclear FMR1 interacting protein 2) the deposit lists z-score vs non-targeting control -0.975. Knock-down of GCM1 (GCM transcription factor 1) resulted in: z-score vs non-targeting control 0.224. Silencing of ANAPC16 (anaphase promoting complex subunit 16) resulted in: z-score vs non-targeting control -0.416. After knock-down of ARRDC1-AS1 (ARRDC1 antisense RNA 1), the screen gave z-score vs non-targeting control 0.156.

With knock-down of STX4 (syntaxin 4), the screen gave z-score vs non-targeting control 1.28 (active). For ZNF490 (zinc finger protein 490), the entry reads z-score vs non-targeting control -0.714. RAI1 (retinoic acid induced 1) scored z-score vs non-targeting control 0.359. With knock-down of PLEKHF2 (pleckstrin homology and FYVE domain containing 2), the screen gave z-score vs non-targeting control 0.932. After knock-down of BCL2 (BCL2 apoptosis regulator), the record shows z-score vs non-targeting control 2.13 (active). For OFD1 (OFD1 centriole and centriolar satellite protein), the values are z-score vs non-targeting control -0.656.

ALDH3B1 (aldehyde dehydrogenase 3 family member B1) scored z-score vs non-targeting control -1.92 (active). After knock-down of LMNTD2 (lamin tail domain containing 2) the results were z-score vs non-targeting control 0.572. Against GLS2 (glutaminase 2), the entry reads z-score vs non-targeting control 0.651. For CELF5 (CUGBP Elav-like family member 5), the entry reads z-score vs non-targeting control -0.634. Knock-down of CENPB (centromere protein B) gave: z-score vs non-targeting control -0.957. Silencing of CIAO2B (cytosolic iron-sulfur assembly component 2B) gave: z-score vs non-targeting control 0.682.

TEDC1 (tubulin epsilon and delta complex 1) gave z-score vs non-targeting control -0.8. Knock-down of AMMECR1L (AMMECR1 like) resulted in: z-score vs non-targeting control 0.952. With knock-down of OR8K1 (olfactory receptor family 8 subfamily K member 1), the screen gave z-score vs non-targeting control -1.12 (active). After knock-down of AGTRAP (angiotensin II receptor associated protein) the results were z-score vs non-targeting control -0.586. TXLNA (taxilin alpha) gave z-score vs non-targeting control 1.1 (active). PF4V1 (platelet factor 4 variant 1) showed z-score vs non-targeting control 0.764.

Knock-down of SLC25A35 gave: z-score vs non-targeting control -1.14 (active). For C10orf88 (chromosome 10 open reading frame 88), the entry reads z-score vs non-targeting control -1.02 (active). RTN4RL1 (reticulon 4 receptor like 1) scored z-score vs non-targeting control -0.321. Depletion of LRIG1 (leucine rich repeats and immunoglobulin like domains 1) gave: z-score vs non-targeting control -0.175. Against TMC7 (transmembrane channel like 7) the deposit lists z-score vs non-targeting control -0.442. TNRC6A (trinucleotide repeat containing adaptor 6A) showed z-score vs non-targeting control -1.21 (active).

With knock-down of OCM (oncomodulin), the screen gave z-score vs non-targeting control -0.226. For GPATCH3 (G-patch domain containing 3) the deposit lists z-score vs non-targeting control 1.39 (active). For ABCC6 (ATP binding cassette subfamily C member 6) the deposit lists z-score vs non-targeting control -1.26 (active). Knock-down of MAN1A2 (mannosidase alpha class 1A member 2) came out at: z-score vs non-targeting control -1.4 (active). Depletion of SLC5A7 resulted in: z-score vs non-targeting control -2.11 (active). After knock-down of PPP1R13L (protein phosphatase 1 regulatory subunit 13 like), the record shows z-score vs non-targeting control -0.401.

Knock-down of CMKLR1 (chemerin chemokine-like receptor 1) gave: z-score vs non-targeting control -1.82 (active). After knock-down of CTH (cystathionine gamma-lyase), the record shows z-score vs non-targeting control -0.665. For SLIT3 (slit guidance ligand 3), the entry reads z-score vs non-targeting control -0.339. Against ARL8A (ARF like GTPase 8A), the entry reads z-score vs non-targeting control 2.84 (active). After knock-down of WFIKKN1, the record shows z-score vs non-targeting control 0.629. Silencing of POLR2I (RNA polymerase II subunit I) gave: z-score vs non-targeting control -1.06 (active).

Targets listed so far whose gene name begins with O or o:
OR5C1 (olfactory receptor family 5 subfamily C member 1) → z-score vs non-targeting control: 0.428
OR4S1 (olfactory receptor family 4 subfamily S member 1) → z-score vs non-targeting control: 0.01
OSBP2 (oxysterol binding protein 2) → z-score vs non-targeting control: -0.834
OFD1 (OFD1 centriole and centriolar satellite protein) → z-score vs non-targeting control: -0.656
OR8K1 (olfactory receptor family 8 subfamily K member 1) → z-score vs non-targeting control: -1.12 (active)
OCM (oncomodulin) → z-score vs non-targeting control: -0.226
